Measured data: PubChem BioAssay AID624099 (ICCB-Longwood, 2012)
The deposit covers about 21,000 reagents; below is a random part of them. Over the whole deposit, 497 (2.4%) were called active. 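Higher z means weaker E2 silencing; only reporter increases were scored, and knock-downs that hurt cell survival may mask genuine repressor factors.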

- Aim: 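Host factors E2 relies on to silence an HPV18 LCR reporter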 (primary screen)
- Cells: human C33A cervical carcinoma cells (HPV-negative) stably expressing BPV1 E2 and an HPV18 LCR luciferase reporter
- Reagent: siRNA pool against human genes, 40 nM
- Timing: 72 h
- Measured: 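Per-well luciferase luminescence, z-scored on each plate against the plate mean and SD with control wells left out, then averaged across three replicate plates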
- Scale: mean z-score and z-score: higher = stronger reporter signal, weaker E2 silencing
- Rule for the call: 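Mean z ≥ 2 together with z ≥ 2 in two or more of the three replicates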

no.	Gene	PubChem SID	mean z-score	z-score, replicate A	z-score, replicate B	z-score, replicate C	Outcome
1	TMEM87A	SID134322261	-1.1	-1.11	-1.15	-1.05	inactive
2	IL32	SID134320001	-0.7	-0.81	-0.53	-0.77	inactive
3	ESRRA	SID134309854	-0.05	0.08	-0.05	-0.19	inactive
4	TMEM196	SID134319961	-0.02	0.08	-0.28	0.14	inactive
5	PDPK1	SID56478472	-0.48	-0.25	-0.63	-0.55	inactive
6	IFITM1	SID134323325	-1.66	-1.67	-1.48	-1.82	inactive
7	LOC400586 (retired record)	SID134328822	-0.64	-0.58	-0.92	-0.43	inactive
8	UMODL1-AS1	SID134320518	4.41	4.1	5.07	4.05	active
9	ZNF28	SID134325847	2.54	2.43	2.61	2.57	active
10	LOC400681 (retired record)	SID134329002	0.05	-0.02	0.05	0.12	inactive
11	SUGP1	SID134321444	-1.53	-1.58	-2.16	-0.85	inactive
12	MRPS12	SID134315725	0.25	0.02	0.42	0.33	inactive
13	MIR503HG	SID134319059	2.18	2.09	2.25	2.21	active
14	ZNF285	SID134320955	-0.18	-0.41	0.02	-0.15	inactive
15	LOC401212 (retired record)	SID134327530	-0.6	-0.57	-0.8	-0.44	inactive

Sorted by “z-score, replicate C” (ascending): 4 of the entries above.
Gene	PubChem SID	mean z-score	z-score, replicate A	z-score, replicate B	z-score, replicate C	Outcome
IL32	SID134320001	-0.7	-0.81	-0.53	-0.77	inactive
PDPK1	SID56478472	-0.48	-0.25	-0.63	-0.55	inactive
ESRRA	SID134309854	-0.05	0.08	-0.05	-0.19	inactive
TMEM196	SID134319961	-0.02	0.08	-0.28	0.14	inactive

The results go on.
no.	Gene	PubChem SID	mean z-score	z-score, replicate A	z-score, replicate B	z-score, replicate C	Outcome
16	HSD17B4	SID134313065	0.87	0.93	0.89	0.8	inactive
17	SULT2B1	SID134314223	0.41	0.3	0.56	0.37	inactive
18	VAPA	SID134324969	0.88	0.73	0.86	1.05	inactive
19	LOC729915 (retired record)	SID134327569	1.34	1.46	1.37	1.19	inactive
20	EPM2AIP1	SID134322746	0.37	0.67	0.22	0.21	inactive
21	ANO2	SID134312154	2.09	2.07	2.41	1.78	active
22	UBE4B	SID134312320	-0.25	-0.27	-0.38	-0.09	inactive
23	PRKRIP1	SID134318557	-0.04	-0.18	-0.1	0.16	inactive
